Publication PMC5171792 (Scientific Reports, 2016)

test system: A/Malaysia/Muar/33/2009 (H1N1); assay: Antiviral (virus inhibition) assay in MDCK cells, plaque reduction; assay type: cell-based, H1N1 virus; settings: ratio CC50 / EC50

SMILES	SI
COc1cc(/C=C/C(=O)O)ccc1O [FA, Ferulic acid, reference compound]	532
CCOC(=O)/C=C/c1cc(OC)c(OC(C)C)c([N+](=O)[O-])c1 [MY3]	43
CCCCOC(=O)/C=C/c1cc(OC)c(O)c([N+](=O)[O-])c1 [MY15]	373
COc1cc(C=O)cc(N=C(N)N)c1O [MY21, guanidino vanillin]	281
COc1cc(C=O)cc(O)c1O [MY23, 3-hydroxyvanillin]	15
COc1cc(C=O)ccc1O [VN, Vanillin, reference compound]	109

same assay, conditions: ratio of CC50 and EC50

SMILES	SI
CCC(CC)O[C@@H]1C=C(C(=O)O)C[C@H](N)[C@H]1NC(C)=O [Oseltamivir carboxylate, reference compound]	10
